Laboratory results as given in patent publication US20240181044A1.

Biological target: RBD (SARS-COV-2) (UniProt P0DTC2)
Test: SPR

For C121, the Kd was 3.9 nM.
